Measured values from several laboratories, pooled; numbers as filed in NIAID ChemDB.

Common to all: tests in culture; organism: Human cytomegalovirus; cell line: HFF; read-out: EC50

ECn is the concentration giving n% inhibition of infection, replication or growth.

{"smiles": "Cn1cc(C(=O)NCc2ccc(Cl)cc2)c(=O)c2cc(CN3CCOCC3)ccc21", "strain": "SC", "method": "plaque count", "result": "1.1 µM"}
{"smiles": "CC(C)Nc1nc2cc(Cl)c(Cl)cc2n1[C@H]1O[C@@H](CO)[C@H](O)[C@@H]1O", "strain": "TOWNE", "method": "plaque count", "result": "34 µM"}
{"smiles": "O[C@@H]1[C@H](O)[C@H](O)CO[C@H]1n1c(Br)nc2cc(Cl)c(Cl)cc21", "strain": "VR4760R (drug-resistant)", "method": "plaque count", "result": "2.5 µM"}
{"smiles": "Nc1ncnc2c1ncn2C=C1CC1CO", "strain": "RCdelta97", "method": "plaque count", "result": "27.6 µM"}
{"smiles": "COC(=O)[C@H](C)NP(=O)(OC[C@H]1C/C1=C/n1cnc2c(=O)[nH]c(N)nc21)Oc1ccccc1", "strain": "AD169", "method": "plaque count", "result": "25 µM"}
{"smiles": "CCCCCCCCCCCCCCCCOP(=O)(O)CO[C@H](CO)Cn1ccc(N)nc1=O", "strain": "VR4955 (foscarnet-resistant)", "method": "plaque count", "result": "0.01 µM"}
{"smiles": "CN(C)c1cccc2c(S(=O)(=O)Nc3ccc(NC(=O)C(C)(C)CO)cc3)cccc12", "strain": "R56 (BDCRB-resistant)", "method": "plaque count", "result": "1.9 µM"}
{"smiles": "Nc1nc2c(ncn2/C=C2/CC2(CO)CO)c(=O)[nH]1", "strain": "C8704 9-1-4 (ganciclovir- foscarnet-resistant)", "method": "plaque count", "result": "0.3 µM"}
{"smiles": "Nc1nc2c(ncn2C=C2CC2CO)c(=O)[nH]1", "strain": "C9209/1-4-4", "method": "plaque count", "result": "10.3 µM"}
{"smiles": "Nc1ccn(C[C@@H](CO)OCP(=O)(O)O)c(=O)n1", "strain": "AD169", "method": "plaque count", "result": "0.2 µg/mL"}
{"smiles": "CCCCCCCC/C=C\\CCCCCCCCOCCOP(=O)(O)CO[C@H](CO)Cn1ccc(N)nc1=O", "strain": "759rD100", "method": "plaque count", "result": "0.04 µM"}
{"smiles": "OC[C@H]1O[C@@H](n2c(Br)nc3cc(Cl)c(Cl)cc32)[C@H](O)[C@@H]1O", "strain": "TOWNE", "method": "plaque count", "result": "1.2 µM"}
{"smiles": "Nc1nc2c(ncn2C[C@@H]2CC[C@@H](P(=O)(O)O)O2)c(=O)[nH]1", "strain": "1117R3-1-2 cidofovir-resistant", "method": "plaque count", "result": "0.06 µg/mL"}
{"smiles": "OC[C@H]1O[C@@H](n2c(Cl)nc3cc(Cl)c(Cl)cc32)[C@H](O)[C@@H]1O", "strain": "Isolate C4 mutations D344E + Q204R", "method": "plaque count", "result": "56 µM"}
{"smiles": "Nc1nc(NC2CC2)c2ncn(C=C3CC3CO)c2n1", "strain": "C9208/3-3-1", "method": "plaque count", "result": "2.2 µM"}
{"smiles": "OC[C@@H]1O[C@@H](n2c(Cl)nc3cc(Cl)c(Cl)cc32)[C@H](O)[C@@H]1O", "strain": "R56 (BDCRB- maribavir-resistant)", "method": "plaque count", "result": "51 µM"}
{"smiles": "CCCCCCCCCCCCCCCCCCOC[C@H](COP(=O)(O)CO[C@H](CO)Cn1ccc(N)nc1=O)OCc1ccccc1", "strain": "VR4955 (foscarnet-resistant)", "method": "plaque count", "result": "0.004 µM"}
{"smiles": "OC[C@H]1O[C@@H](n2c(Br)nc3cc(Cl)c(Cl)cc32)[C@H](O)[C@@H]1O", "strain": "TOWNE", "method": "virus yield", "result": "<0.48 µM"}
{"smiles": "CCCCCCCCCCCCOCCCOP(=O)(O)CO[C@H](CO)Cn1ccc(N)nc1=O", "strain": "AD169", "method": "plaque count", "result": "0.01 µM"}
{"smiles": "Cn1cc(C(=O)NCc2ccc(Cl)cc2)c(=O)c2cc(CN3CCOCC3)ccc21", "strain": "1117/R (CDV GCV-resistant)", "method": "plaque count", "result": "1.5 µM"}
{"smiles": "CCCCCCCC/C=C\\CCCCCCCOCCCOP(=O)(O)CO[C@H](CO)Cn1ccc(N)nc1=O", "strain": "759rD100", "method": "plaque count", "result": "0.01 µM"}
{"smiles": "O[C@@H]1[C@H](O)CO[C@H]1n1c(Cl)nc2cc(Cl)c(Cl)cc21", "strain": "D10 (BDCRB- and maribavir-resistant)", "method": "plaque count", "result": "4.6 µM"}
{"smiles": "OC[C@H]1O[C@@H](n2c(Br)nc3cc(Cl)c(Cl)cc32)[C@H](O)[C@@H]1O", "strain": "DAVIS", "method": "plaque count", "result": "0.6 µM"}
{"smiles": "Nc1nc2c(ncn2COC(CO)CO)c(=O)[nH]1", "strain": "2916 (bdcrb maribavir-resistant)", "method": "virus yield", "result": "1.5 µM"}
{"smiles": "O=C(NCc1ccc(Cl)cc1)c1cn2c3c(cc(CN4CCOCC4)cc3c1=O)OC(c1cccnc1)C2", "strain": "PFA/R B300 (PFA-resistant)", "method": "plaque count", "result": "4.1 µM"}

3 of the rows above, restated:

{"smiles": "OC[C@H]1O[C@@H](n2c(Cl)nc3cc(Cl)c(Cl)cc32)[C@H](O)[C@@H]1O", "strain": "Isolate C4 mutations D344E + Q204R", "method": "plaque count", "result": "56 µM"}
{"smiles": "Nc1nc2c(ncn2/C=C2/CC2(CO)CO)c(=O)[nH]1", "strain": "C8704 9-1-4 (ganciclovir- foscarnet-resistant)", "method": "plaque count", "result": "0.3 µM"}
{"smiles": "CCCCCCCCCCCCCCCCOP(=O)(O)CO[C@H](CO)Cn1ccc(N)nc1=O", "strain": "VR4955 (foscarnet-resistant)", "method": "plaque count", "result": "0.01 µM"}

Rows are shuffled and stem from different studies.